Tested on: Raji-bearing NSGS mice with low tumour burden treated with hCART19
Assay: hCART19 treatment of Raji-bearing NSGS mice, low tumour burden
Type: in vivo, mouse (NSGS)
From the text: Six to eight weeks old female NSG-SGM3 (NSGS) mice (NOD.Cg-Prkdcscid Il2rgtm1WjlTg (CMV-IL3, CSF2, KITLG) 1Eav/MloySzJ, Stock #013062) were purchased from the Jackson Laboratory. Raji cells were transfected with a luciferase construct via lentivirus to create Raji-luc cells. NSGS is a triple transgenic strain expressing human IL3, GM-CSF and SCF combine the features of the highly immunodeficient NOD scid gamma (NSG) mouse. One day before the injection of Raji cells, mice were irradiated at a dose of 2 Gy in a CIXD Xstahl device. In high tumor burden experiments in FIG. 5, 10^6 Raji-luc cells were injected IV via tail vein. Six days later, tumor loads were assessed using a Xenogen instrument and 15×10^6 hCART19 cells or untransduced T-cells were injected IV. In low tumor burden experiments in FIG. 6, 2×10^5 Raji-luc cells were injected IV via tail vein. Four days later, tumor loads were assessed using a Xenogen instrument and 15×10^6 hCART19 cells were injected IV. Metyrosine was injected IP at 60 mg/kg/day for three days before the hCART19 injection. On the day of CART19 injection, a fourth dose of 60 mg/kg was given IP and the mice were subsequently injected four more times at daily intervals at 30 mg/kg.

With C[C@](N)(Cc1ccc(O)cc1)C(=O)O [metyrosine, α-methyl-tyrosine] the “in vivo CART cell expansion or tumor clearance” value was “Neither metyrosine nor ANP substantially interfered”.

Reference: US12564622B2, “Preventing cytokine release syndrome” (priority 2017, dated 2026)
